Test results from PubChem BioAssay AID434955 (Southern Research Specialized Biocontainment Screening …, 2010).

Each compound was assayed on M. tuberculosis H37Rv growth with meropenem, percent inhibition (assay: beta-lactam sensitization of Mtb H37Rv, H37Rv (AID 434955)).

Row | Compound | IC90
1 | O=[As](O)(c1ccc(O)cc1)c1ccccc1O | 57.6 µM
2 | Nc1ccc([As](=O)(O)c2ccc(N)cc2)cc1 | 63.9 µM
3 | Nc1ccc([As](=O)(O)c2ccc([N+](=O)[O-])cc2)cc1 | 7.99 µM
